For at least one entry, the source does not settle the construct or the ends of the probe.
Tested on: His9-PigP
Assay: EMSA
Details: 5 mM MgCl2, competed by unlabeled pigA promoter; recombinant protein; residues 1-204; label: 5'-biotin; probe letters rebuilt from the primers and the genome

Q: Does “CGGAATTCAGTATCGAGCGCATTCATGCCCAATCCGCCGAACGCGGTCGTCACGGGGGCTCGGGTAAAACCATAGGCGGCGGCTTGTTGCCACAAATCCAGGCTTAATACCTGCCGTGAAAGCCGAGCATGCGCATCCTGATCCAGCACCTCGCGGGCAAAACGCTGAGCGGATTCGCTTAGAGCCTGCTGCTCACTTGATAAGTTAAAATCCATGACGAACTCCGCCATTGGGTTGAGAGATTAAATTAGCTAATATTTCTAGTTTGGAGGTGGCCAAAACTCAAACAGGCAAAGTAATGGTAAATGTAAGTAAATGTTTATTTATGTGGTCTATTATTACAATTTTGTTAATTGATGTTTTTATTTTGTTGTTTTTGTTGTGTTTTATTTTGTGTTATTTATACACAAAAATTTACATATAATAAAAATCTTAATTTGATCAAATTTTAATAGGTTAGATTGTCTATTGTTTTTTGATGAATACTTTGCAGGTGAAGTATCTATCTTTTGGATGTGGCTATCGGTTTCTCATCGATATCGACGGTAGGGCGTTGAGGCTTGGTGAGTGGCGGAAAGCGGCTTAAGATAGGAGATGAGCAGGAGCATTCCGGAGGAAAAAATGAATATTAGCGACGTCG (double strand) [pigA promoter]” bind?
A: binds
